PubChem BioAssay AID1224833 – University of Georgia, 2016
Screen: 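Human genes whose knock-down alters rotavirus replication in monkey cells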 (primary screen). Cells: monkey MA104 kidney cells. Knock-down reagent: siRNA pool against human genes, 50 nM. Time to read-out: 48 h knock-down before infection; read 24 h after infection. Conditions: infection with rotavirus strain RV3 two days after transfection; infectious dose for this stage not given. Read-out: 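z-score of rotavirus antigen signal per well, from a fluorescent immunoassay, relative to non-targeting control wells on the same plate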. Direction: z-score vs non-targeting control: higher = more rotavirus replication than with non-targeting control. Hit rule: In these data the active calls have z-score vs non-targeting control at about -1 or lower, or at about 1 or higher. Calls: active = z-score beyond 1 either way; inactive = z-score within 1 of zero.
In all, the deposit lists about 12,000 reagents; shown is an unselected part. About 5,600 of them (46%) count as active. 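Active calls cover z-scores past 1 in both directions, so they include lowered as well as raised rotavirus replication.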

Target gene	z-score vs non-targeting control	Outcome
SPEF1 (GeneID 25876)	-0.699	inactive
REDIC1 (GeneID 283461)	1.46	active
ZNF34 (GeneID 80778)	1.89	active
CKAP2 (GeneID 26586)	0.565	inactive
CCDC140 (GeneID 151278)	-0.553	inactive
PIMREG (GeneID 54478)	-0.552	inactive
PNPLA1 (GeneID 285848)	-0.508	inactive
MFSD12 (GeneID 126321)	-0.733	inactive
DTNB (GeneID 1838)	0.646	inactive
ABCC1 (GeneID 4363)	-1.68	active
INS-IGF2 (GeneID 723961)	0.132	inactive
BATF (GeneID 10538)	-1.06	active
CD53 (GeneID 963)	-1.3	active
KRT84 (GeneID 3890)	0.712	inactive
SAFB2 (GeneID 9667)	0.255	inactive
RTL9 (GeneID 57529)	0.848	inactive
TMEM11 (GeneID 8834)	2.36	active
ADAM23 (GeneID 8745)	1.21	active
GPR37L1 (GeneID 9283)	1.53	active
PSD4 (GeneID 23550)	-1.35	active
R3HDM2 (GeneID 22864)	-1.45	active
PAQR7 (GeneID 164091)	-1.56	active
SNUPN (GeneID 10073)	3.99	active
TIMM44 (GeneID 10469)	-0.157	inactive
ADGRG3 (GeneID 222487)	-0.518	inactive
OR2G3 (GeneID 81469)	0.503	inactive
FOXD4L5 (GeneID 653427)	-2.06	active
ARHGAP42 (GeneID 143872)	2.21	active
ECHDC1 (GeneID 55862)	0.738	inactive
PGBD4 (GeneID 161779)	-0.47	inactive
RRP1B (GeneID 23076)	-0.984	inactive
C1QA (GeneID 712)	-2.14	active
OR7G2 (GeneID 390882)	-0.538	inactive
GPALPP1 (GeneID 55425)	0.0354	inactive
PPP1R3F (GeneID 89801)	-1.59	active
FMNL3 (GeneID 91010)	-0.514	inactive
NFKBID (GeneID 84807)	-0.967	inactive
RHOT2 (GeneID 89941)	0.123	inactive
XKR7 (GeneID 343702)	-1.34	active
RMC1 (GeneID 29919)	-0.0694	inactive
AKAP10 (GeneID 11216)	-1.92	active
CNOT7 (GeneID 29883)	-0.813	inactive
SAMD9 (GeneID 54809)	-1.44	active
C1orf35 (GeneID 79169)	-0.746	inactive
ELAC1 (GeneID 55520)	1.3	active
DNER (GeneID 92737)	-0.35	inactive
UQCR11 (GeneID 10975)	-1.2	active
CLTRN (GeneID 57393)	-0.219	inactive
HHIPL1 (GeneID 84439)	0.195	inactive
OR2L2 (GeneID 26246)	2.43	active
TMEM178A (GeneID 130733)	1.76	active
KLHL32 (GeneID 114792)	-0.732	inactive
SYF2 (GeneID 25949)	0.179	inactive
PDE4D (GeneID 5144)	0.97	inactive
ZNF334 (GeneID 55713)	-1	active
GNA13 (GeneID 10672)	-1.41	active
OTX2 (GeneID 5015)	1.59	active
VPS16 (GeneID 64601)	1.5	active
SYT6 (GeneID 148281)	0.0381	inactive
KRT34 (GeneID 3885)	1.51	active
PAFAH1B1 (GeneID 5048)	-0.124	inactive
KARS1 (GeneID 3735)	-1.45	active
IFRD2 (GeneID 7866)	0.166	inactive
AP5M1 (GeneID 55745)	0.145	inactive
OR11H4 (GeneID 390442)	-0.143	inactive
TMEM132E (GeneID 124842)	-2.32	active
KRT77 (GeneID 374454)	1.62	active
ZNF331 (GeneID 55422)	0.573	inactive
OR52E6 (GeneID 390078)	-3.18	active
URB1 (GeneID 9875)	-0.527	inactive
STMN2 (GeneID 11075)	-2.16	active
SELENOO (GeneID 83642)	0.569	inactive
MAB21L4 (GeneID 79919)	-0.744	inactive
MBTD1 (GeneID 54799)	-0.313	inactive
VAMP8 (GeneID 8673)	-0.236	inactive

Ordered by “z-score vs non-targeting control” (lowest first): some entries from above
Target gene	z-score vs non-targeting control	Outcome
ABCC1 (GeneID 4363)	-1.68	active
CD53 (GeneID 963)	-1.3	active
BATF (GeneID 10538)	-1.06	active
INS-IGF2 (GeneID 723961)	0.132	inactive
SAFB2 (GeneID 9667)	0.255	inactive
KRT84 (GeneID 3890)	0.712	inactive
RTL9 (GeneID 57529)	0.848	inactive
